We go through one substance from paper PMC12426278, “CD147 mediates the adsorption of influenza A virus on the cell surface through direct interaction with HA” (2025).

The experiment deals with H9-His (soluble extracellular domain of H9N2 HA) (influenza A virus A/chicken/Zhe Jiang/2023010/2023 (H9N2)). Description: negative-stain electron microscopy.

Substance “H9-His (soluble extracellular domain of H9N2 HA) (domain or fragment)” displayed a stoichiometry N of 3.

As usually defined, the stoichiometry N is a count of units in the complex or per binding partner.
